Measurements: the supplement of paper PMC9931576
Human monoclonal antibodies against the spike receptor-binding domain (heavy:light variable regions). IC50 against pseudoviruses bearing the spike of naturally observed variants; lower = stronger; >10 µg/ml means not reached at the top dose. No active / inactive call. The stated detection limit is 0.0005 µg/ml; values near or below 0.001 µg/ml lie at the floor of the assay.

B1: BD56-437 (protein)
chain 1: QVQLQESGPGLVKPSETLSLTCTVSGASISSYSWRWIRQPPGKGLEWIGNIYDSGSTNYNPSLKSRVTISVDTSKNQFYLKVTSVTAADTAVYYCARVADYGGPYGYYGMDVWGQGTTVTVSS
chain 2: DIQMTQSPSSVSASVGDRVTISCRASQSISSWLVWYQQKPGKAPKLLIYAASSLQSGVPSRFSGSGSGTDFTLTISSLQPEDSAAYYCQQSNSFPLTFGGGTKVETK
B2: BD56-438 (protein)
chain 1: QVQLVESGGGVVQPGRSLRLSCAASGFTFRSHAMHWVRQAPGKGLECVAVIWNDESKTNYVDSVKGRFTISRDNSKNILYLQMNSLRAEDTAMYYCAREGISIGVGGDDAFDIWGQGTMVTVSS
chain 2: DIQVTQSPSSLSASVGDRVTITCRASQSISIFLNWYQQKPGKAPNLLIYGASSLQSGVPSRFSGRGSGTDFTLTISSLQPEDFATYYCQQSYSSPYTFGQGTKLEIK
B3: BD56-441 (protein)
chain 1: QMQLVQSGPEVKKPGTSVKVSCKSSGFTFSISAVQWVRQARGQRLEWMGWIVVGSGNTHYAQEFQERVTFTRDMATGSVYIELSSLRSEDTAVYYCAAPNCNRTNCYDAFDLWGQGTVVTVSS
chain 2: EIVLTQSPGTLSLSPGERATLSCRASQSVRSSYLAWYQQKPGQAPRLLIYGASNRATGIPDKFSGSGSGTFFTLTISRLEPEDFAVYYCQHYGGSQFTFGPGTKVDI
B4: BD56-442 (protein)
chain 1: EVQLVESGGGLVQPGRSLTLACAASEFTFDDYAMHWVRQAPGKGLEWVSGISWNGGIIGYADSVKGRFIISRDNAKNSLYLHMRSLRPEDTALYYCAKALGFGELSEYSFDSWGQGTLVTVSS
chain 2: QSALTQPASVSGSPGQSITISCTGTSSDIASYNYVSWYQQHPGKAPKLMIYDVSKRPSGVSSRFSGSKSGITASLTISGLQAEDEADYFCSSYTSSSTLVFGGGTKLTVL
B5: BD56-446 (protein)
chain 1: EVQLVESGGGLIQPGGSLRLSCAASGFIVSSNYMSWVRQAPGKGLEWVSLIYPGGSTFYADSVKGRFTISRDNSKNTLYLQMNSLRAEDTAMYYCARVLPLHGDYFDYWGQGTLVTVSS
chain 2: DIQMTQSPSSLSASVGDRVTITCRASQSISDYLNWYQQKPGKAPNLLIYGASSLQSGVPSRFSGSGSGTDFTLTISSLQPEDFATYFCQQSYSSPTFGPGTKVDLK
B6: BD56-456 (protein)
chain 1: QVQLVQSGAEVKKPGASVKLSCEASGYTFTSYTLHWVRQAPGQRLEWMGWINAANGNTKYSQKFQGRVTITRDTSASTVYMYLSSLRSEDSAVYYCATAKVRGDIGGGWYFYYYGMDVWGQGTTVTVSS
chain 2: DIVMTQSPLSLPVTPGEPASISCRSNESLLHSNGYNYLDWYLQKPGQSPQLLIYLGSNRASGVPDRFSGSGSDTDFTLKISRVEAEDVGVYYCMHALQSLPWTFGQGTKVEIK
B7: BD56-458 (protein)
chain 1: QVQLVESGGGVVQPGRSLRLSCAASGFTFNSYAMYWVRQAPGRGLEWVAVISYDGDKKYYADSVKGRFTISRDNSKNTVFLQMDRLRGGDTSLYYCARGTDYGDYIPWFDPWGQGTLVTVAS
chain 2: QSALTQPASVSGSPGQSITISCTGTSSDIGGYNFVSWYQQYPGKAPKLVIHNVSHRPSGVSNRFSGSKSGNTASLTLSGLLAEDEADYYCSSYTATNTVLFGGGTKLTVL

target: SARS-CoV-2 Omicron BA.1 spike pseudovirus; assay: pseudovirus neutralization IC50; higher = weaker neutralization
Method: (§1)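 Single-round VSV luciferase pseudovirus mixed with antibody dilutions for 1 h and put on Huh-7 cells for about a day; IC50 from the dose curve.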

Row | Binder | pseudovirus neutralization IC50 [µg/mL]
1 | B1 | > 10
2 | B2 | 0.00593
3 | B3 | 0.00647
4 | B4 | 0.0483
5 | B5 | 0.0115
6 | B6 | 0.041
7 | B7 | 0.546

target: SARS-CoV-2 Omicron BA.2 spike pseudovirus; assay: as above
Method: as §1

Row | Binder | pseudovirus neutralization IC50 [µg/mL]
8 | B1 | > 10
9 | B2 | 0.00484
10 | B3 | 0.00872
11 | B4 | 0.0368
12 | B5 | 0.0083
13 | B6 | 0.0116
14 | B7 | 0.00474

target: SARS-CoV-2 Omicron BA.2.75 spike pseudovirus; assay: as above
Method: as §1

Row | Binder | pseudovirus neutralization IC50 [µg/mL]
15 | B1 | > 10
16 | B2 | 0.00618
17 | B3 | 0.00251
18 | B4 | 0.0348
19 | B5 | > 10
20 | B6 | 0.037
21 | B7 | 0.326

target: SARS-CoV-2 Omicron BA.5 spike pseudovirus; assay: as above
Method: as §1

Row | Binder | pseudovirus neutralization IC50 [µg/mL]
22 | B1 | > 10
23 | B2 | > 10
24 | B3 | 1.24
25 | B4 | > 10
26 | B5 | 0.118
27 | B6 | > 10
28 | B7 | 0.00463

target: SARS-CoV-2 Omicron BQ.1.1 spike pseudovirus; assay: as above
Method: as §1

Row | Binder | pseudovirus neutralization IC50 [µg/mL]
29 | B1 | > 10
30 | B2 | > 10
31 | B4 | > 10
32 | B5 | > 10
33 | B6 | > 10
34 | B7 | > 10

target: SARS-CoV-2 Omicron XBB spike pseudovirus; assay: as above
Method: as §1

Row | Binder | pseudovirus neutralization IC50 [µg/mL]
35 | B1 | > 10
36 | B2 | > 10
37 | B4 | 3.24
38 | B5 | > 10
39 | B6 | > 10
40 | B7 | > 10

target: SARS-CoV-2 early D614G spike pseudovirus; assay: as above
Method: as §1

Row | Binder | pseudovirus neutralization IC50 [µg/mL]
41 | B1 | 0.00307
42 | B2 | 0.00203
43 | B3 | 0.00291
44 | B4 | 0.0297
45 | B5 | 0.0123
46 | B6 | 0.00375
47 | B7 | 0.001
